Results as given in patent US8143421B2, “Broadspectrum substituted benzimidazole sulfonamide HIV protease inhibitors” (priority 2002, dated 2012).

Tested on: mock-infected MT4 cells
Assay: Toxicity on mock-infected MT4 cells (CC50)
Details: pCC50 value as determined with mock transfected cells
Description: HIV- or mock-infected MT4 cells were incubated for five days in the presence of various concentrations of the inhibitor. […] Cell viability is measured by measuring the concentration of MTT, a yellow, water soluble tetrazolium dye that is converted to a purple, water insoluble formazan in the mitochondria of living cells only. Upon solubilization of the resulting formazan crystals with isopropanol, the absorbance of the solution is monitored at 540 nm. The values correlate directly to the number of living cells remaining in the culture at the completion of the five day incubation. The inhibitory activity of the compound was monitored on the virus-infected cells and was expressed as IC50 and IC90. These values represent the amount of the compound required to protect 50% and 90%, respectively, of the cells from the cytopathogenic effect of the virus. The toxicity of the compound was measured on the mock-infected cells and was expressed as CC50, which represents the concentration of compound required to inhibit the growth of the cells by 50%. […] Wherever results are reported as e.g. pIC50 or pCC50 values, the result is expressed as the negative logarithm of the result expressed as IC50 or CC50 respectively.
As a measure of the broad spectrum activity of the present compounds, the fold resistance (FR), defined as FR=IC50(mutant strain)/IC50(HIV-1 strain LAI), was determined.

SMILES | Tox (pCC50)
CC(C)CN(C[C@@H](O)[C@H](Cc1ccccc1)NC(=O)OCc1cncs1)S(=O)(=O)c1ccc2ncn(Cc3ccccc3)c2c1 [Compound 30] | <4
CC(C)CN(C[C@@H](O)[C@H](Cc1ccccc1)NC(=O)OC(C)(C)C)S(=O)(=O)c1ccc2nc(N)n(Cc3ccccc3)c2c1 [Compound 39] | 4.3
